Measured values published in PMC10128061, “Targeting Sterylglucosidase A to Treat Aspergillus fumigatus Infections” (mBio, 2023).

Amino acid sequences for entries named in this document (tags omitted). Residues count along the entry.
UniProt Q4WXA7, 1-759: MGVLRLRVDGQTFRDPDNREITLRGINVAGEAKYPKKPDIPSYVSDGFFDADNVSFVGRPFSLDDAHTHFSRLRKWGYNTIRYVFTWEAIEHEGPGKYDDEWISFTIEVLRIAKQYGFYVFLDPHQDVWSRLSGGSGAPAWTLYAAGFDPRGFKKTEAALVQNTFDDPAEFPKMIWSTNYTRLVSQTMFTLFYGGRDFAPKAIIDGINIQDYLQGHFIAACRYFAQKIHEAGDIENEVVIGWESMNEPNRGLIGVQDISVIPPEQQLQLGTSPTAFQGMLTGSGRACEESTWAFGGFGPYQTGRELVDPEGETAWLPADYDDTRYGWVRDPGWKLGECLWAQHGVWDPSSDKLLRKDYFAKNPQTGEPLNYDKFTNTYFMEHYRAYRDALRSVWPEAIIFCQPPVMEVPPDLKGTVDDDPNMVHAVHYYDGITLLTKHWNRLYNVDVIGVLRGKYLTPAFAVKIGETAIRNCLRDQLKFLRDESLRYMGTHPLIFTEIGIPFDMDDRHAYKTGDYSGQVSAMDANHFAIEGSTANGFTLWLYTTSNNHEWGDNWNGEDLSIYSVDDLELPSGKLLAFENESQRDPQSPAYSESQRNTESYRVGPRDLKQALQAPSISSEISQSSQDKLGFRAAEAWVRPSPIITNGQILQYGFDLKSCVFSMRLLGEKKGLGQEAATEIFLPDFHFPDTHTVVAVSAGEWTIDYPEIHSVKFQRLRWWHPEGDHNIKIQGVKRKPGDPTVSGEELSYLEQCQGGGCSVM

These compounds were tested against Af SglA (Aspergillus fumigatus, UniProt Q4WXA7) (assay: HTS / resorufin 3β-D-glucopyranoside (ResGlp) enzymatic assay of SglA). Conditions: primary screen, ResGlp as the substrate, single compounds 0.25 to 4 μM.
Format: biochemical
Method: Resorufin 3β-D-glucopyranoside (ResGlp; Sigma-Aldrich) enzyme kinetic assays were performed according to methods described by Pereira de Sa et al. ([17]). Reaction buffer contained 50 mM citric acid, 176 mM K2HPO4 (pH 6), 0.01% Tween 20, and 10 mM sodium taurocholate. The reaction was carried out in a black 96-well plate using 0.23 pmol of SglA with 100 μM ResGlp substrate. 10 μL/well of ResGlp was added to each well and the reaction was initiated by adding 20 μL enzyme (0.23 pmol). After incubation at 37°C for 30 min, the fluorescence was read at an excitation of 570 (±10) nm and an emission of 610 (±10) nm on a VersaMax microplate reader from Molecular Devices. A standard curve was prepared with serial dilutions of the free fluorophore, resorufin, in the same volume of assay buffer. All reactions were linear with respect to time and protein concentration, and the pH, temperature, and dimethyl sulfoxide (DMSO) optimal tolerance were verified.
A ChemBridge DIVERSet-CL library (ChemBridge, San Diego, CA) containing 50,000 compounds was screened to identify small molecules that inhibit Af SglA. The library was prepared in a 96-well plate format containing a cocktail of 10 compounds per well at 1 mM each in 100% DMSO. The cocktail plates were first diluted to 100 μM each (1:10 dilution in Dulbecco’s phosphate-buffered saline [DPBS]), resulting in 10% DMSO. In order to screen the compound cocktails at […] in 1% DMSO in a final reaction volume of 30 μL, an aliquot of 3 μL was added to 17 μL of buffer containing 0.23 pmol of enzyme and the reaction was started by adding 10 μL of 100 μM ResGlp. A negative control without enzyme and positive controls with and without DMSO were prepared. The plates were incubated at 37°C for 30 min. The Z′ factor was used for the assessment of the efficiency of the HTS assay for each plate. Values greater than 0.5 are considered indicators of excellent screening assay quality ([36]).
Work on `CCc1[nH]c2ccc(CNc3nccc(N4CCCC(O)C4)n3)cc2c1C` (centres unmarked) yielded an IC50 of 2000 nM.
`COc1cccc(-n2cc(CN(C)Cc3ccc(O)c(Cl)c3)cn2)c1` was tested, and the IC50 was 1000 nM.
For `CCc1[nH]c2ccc(CNCc3cc(OC)c4c(c3)OCO4)cc2c1C`, the IC50 was 1000 nM.
Work on `COc1cc(CNCc2cc(C)cc3c(C)c(C)[nH]c23)cc2c1OCO2` yielded an IC50 of 1000 nM.
`Cc1cc(NCc2ccc3[nH]c(C)c(C)c3c2)nc(N)n1` gave an IC50 of 1000 nM.
With `CCNc1ccnc(NCc2cccnc2Oc2ccc(F)cc2F)n1` the IC50 was 500 nM.
For `c1cc2c(c(-c3cccc4[nH]ccc34)c1)CCNC2`, the IC50 was 2000 nM.
In the case of `Cc1[nH]c2ccc(CNc3nccc(N)n3)cc2c1C`, the IC50 is reported as 1000 nM.
Compound `Cc1cc2c(N3CCCC(c4nccn4CC4CCC4)C3)ncnc2s1` (centres unmarked) has an IC50 of 2000 nM.
With `CC(C)Nc1ccnc(NCc2cccnc2Oc2ccc(F)cc2F)n1` the IC50 was 500 nM.
`CNc1cc(C)nc(NCc2ccc3[nH]c(C)c(C)c3c2)n1` showed an IC50 of 500 nM.
